Data published in patent US20120129928A1, “Chlorine-Free Liquid Microbicide Treatment” (University of Georgia Research Foundation, Inc., priority 2010, published 2012).
Values joined by “and” are separate entries in the source; they are usually repeats but may differ in a detail not shown here. Identical values can stand only once.

Experiments:
[1] = tested on: E. coli O157:H7; details: sulfate
[2] = tested on: S. typhimurium; assay: S. typhimurium counts on produce (apples, celery, onions, cantaloupes) and in treatment solution, 4-L tank; details: Example 27, treatment time 2 min

Row | Compound | E. coli O157:H7 counts [1] | average S. typhimurium count on cantaloupes [2] [log CFU/cantaloupe] | average reduction of S. typhimurium on cantaloupes [2] [log CFU/cantaloupe]
1 | CCCCCCCCCCCCOS(=O)(=O)[O-].[Na+] [SDS, sodium dodecyl sulfate] | 7.1 log CFU/ml and 6.9 log CFU/ml and 7.0 log CFU/ml | – | –
2 | acidified sodium chlorite [50 ppm acidified sodium chlorite] | – | 3.43 | 0.19
